A mixed list of measured activities; the numbers were collected in NIAID ChemDB.

Shared fields: tests on isolated targets; organism: Hepatitis C virus

Percent inhibition refers to the dose given; in toxicity tests it is the harm to the cells. Neighbouring rows are from separate reports. Two numbers with a dash give a range or band. An empty or dashed field is not shown. ICn: concentration for n% inhibition.

{"SMILES": "CC(C)CC(=O)N(Cc1ccccc1Cl)c1cc(-c2ccccc2)sc1C(=O)O", "endpoint": "IC50", "protein": "NS3 ATPase", "value": "5–20 µM"}
{"SMILES": "COc1cc(-c2cc(-c3ccc(OCc4ccccc4)cc3)nc3cc(C(=O)O)nn23)ccc1Cl", "endpoint": "IC50", "protein": "RNA-dependent RNA polymerase", "value": "1–10 µM"}
{"SMILES": "O=C(O)c1ccc2c(c1)nc(-c1ccc3nc(-c4cc(O)cc(O)c4)ccc3c1)n2C1CCCCC1", "endpoint": "inhibition", "tested at": "33 µM", "protein": "NS5B polymerase", "value": "94.33%"}
{"SMILES": "O=C(Nc1ccsc1-c1nc(C(=O)O)c(O)c(=O)[nH]1)OCC(c1ccccc1)c1ccccc1", "endpoint": "IC50", "protein": "HCV polymerase", "value": "<25 µM"}
{"SMILES": "CCC(=O)N(Cc1ccc(Cl)cc1)c1cc(-c2ccccc2)sc1C(=O)O", "endpoint": "IC50", "protein": "NS3 ATPase", "value": "<5 µM"}
{"SMILES": "O=C(O)c1cnn2c(-c3ccccc3-c3ccccc3F)ccnc12", "endpoint": "IC50", "protein": "RNA-dependent RNA polymerase", "value": ">10 µM"}
{"SMILES": "CN(C(=O)c1ccc(F)cc1F)c1cc(-c2ccccc2)sc1C(=O)O", "endpoint": "IC50", "protein": "NS3 ATPase", "value": "5–20 µM"}
{"SMILES": "O=C(O)c1ccc2c(c1)nc(-c1ccc3nc(-c4cccc(O)c4)ccc3c1)n2C1CCCCC1", "endpoint": "inhibition", "tested at": "100 µM", "protein": "NS5B polymerase", "value": "101%"}
{"SMILES": "CCOC(=O)c1c(S(=O)(=O)Nc2cc(-c3ccccc3)sc2C(=O)O)c(-c2ccccc2)n(-c2ccccc2)c1C", "endpoint": "IC50", "protein": "NS3 ATPase", "value": "<5 µM"}
{"SMILES": "O=C(O)c1cc2nc(-c3ccc(Cl)cc3Cl)cc(-c3cccc(OCc4ccccc4)c3)n2n1", "endpoint": "IC50", "protein": "RNA-dependent RNA polymerase", "value": "1–10 µM"}
{"SMILES": "CCCN(CCC)Cc1ccc2cc(-c3nc4cc(C(=O)O)ccc4n3C3CCCCC3)ccc2n1", "endpoint": "inhibition", "tested at": "100 µM", "protein": "NS5B polymerase", "value": "96.01%"}
{"SMILES": "O=C(CNc1ccsc1-c1nc(C(=O)O)c(O)c(=O)[nH]1)Nc1ccccc1Cl", "endpoint": "IC50", "protein": "HCV polymerase", "value": "<25 µM"}
{"SMILES": "O=C(NC(Cc1ccc(-c2ccccc2)cc1)C(=O)O)c1ccc2c(c1)nc(-c1ccc3nc(-c4ccccc4)cnc3c1)n2C1CCCCC1", "endpoint": "inhibition", "tested at": "33 µM", "protein": "NS5B polymerase", "value": "95.74%"}
{"SMILES": "CN(Cc1ccccc1)C(=O)Nc1ccsc1-c1nc(C(=O)O)c(O)c(=O)[nH]1", "endpoint": "IC50", "protein": "HCV polymerase", "value": "<25 µM"}
{"SMILES": "c1ccc(Oc2ccc(-c3cnc4c(-c5nn[nH]n5)cnn4c3C3CCCCC3)cc2)cc1", "endpoint": "IC50", "protein": "RNA-dependent RNA polymerase", "value": "<1 µM"}
{"SMILES": "O=C(Nc1cccc(Cl)c1)Nc1cscc1-c1nc(C(=O)O)c(O)c(=O)[nH]1", "endpoint": "IC50", "protein": "HCV polymerase", "value": "<25 µM"}
{"SMILES": "CC(C)CC(=O)N(Cc1cccc(Cl)c1)c1cc(-c2ccccc2)sc1C(=O)O", "endpoint": "IC50", "protein": "NS3 ATPase", "value": "<5 µM"}
{"SMILES": "O=C(O)c1nc(-c2sccc2NC(=O)C(NCc2ccccc2)c2ccccc2)[nH]c(=O)c1O", "endpoint": "IC50", "protein": "HCV polymerase", "value": "<25 µM"}
{"SMILES": "CC(C)Cc1ccc(-c2cc(NS(=O)(=O)c3cc(OCC(F)(F)F)ccc3OCC(F)(F)F)c(C(=O)O)s2)cc1", "endpoint": "IC50", "protein": "NS3 ATPase", "value": ">20 µM"}
{"SMILES": "O=C(Nc1ccsc1-c1nc(C(=O)O)c(O)c(=O)[nH]1)c1ccccc1Cl", "endpoint": "IC50", "protein": "HCV polymerase", "value": "<25 µM"}
{"SMILES": "COc1ccc(-c2nc3ccc(-c4nc5cc(C(=O)O)ccc5n4C4CCCCC4)cc3nc2-c2ccc(OC)cc2)cc1", "endpoint": "inhibition", "tested at": "33 µM", "protein": "NS5B polymerase", "value": "97.35%"}
{"SMILES": "O=C(O)c1nc(-c2ccccc2NS(=O)(=O)c2ccccc2C(F)(F)F)[nH]c(=O)c1O", "endpoint": "IC50", "protein": "HCV polymerase", "value": "<100 µM"}
{"SMILES": "O=C(O)c1cc2nc(-c3cccc(Cl)c3)cc(-c3cccc(Cl)c3)n2n1", "endpoint": "IC50", "protein": "RNA-dependent RNA polymerase", "value": ">10 µM"}
{"SMILES": "CN(C(=O)c1c(F)cc(F)cc1F)c1cc(-c2ccccc2)sc1C(=O)O", "endpoint": "IC50", "protein": "NS3 ATPase", "value": "5–20 µM"}
{"SMILES": "O=C(NCc1cscn1)Nc1cscc1-c1nc(C(=O)O)c(O)c(=O)[nH]1", "endpoint": "IC50", "protein": "HCV polymerase", "value": "<25 µM"}
{"SMILES": "CN(C)c1cc(-c2ccccc2)nc2ccc(-c3nc4cc(C(=O)O)ccc4n3C3CCCCC3)cc12", "endpoint": "inhibition", "tested at": "100 µM", "protein": "NS5B polymerase", "value": "96.74%"}
{"SMILES": "Cc1ccc(S(=O)(=O)Nc2cc(-c3ccc(CO)cc3)sc2C(=O)O)c(C)c1", "endpoint": "IC50", "protein": "NS3 ATPase", "value": "<5 µM"}

3 of the rows above, restated:

SMILES	endpoint	tested at	protein	value
CN(Cc1ccccc1)C(=O)Nc1ccsc1-c1nc(C(=O)O)c(O)c(=O)[nH]1	IC50	-	HCV polymerase	<25 µM
c1ccc(Oc2ccc(-c3cnc4c(-c5nn[nH]n5)cnn4c3C3CCCCC3)cc2)cc1	IC50	-	RNA-dependent RNA polymerase	<1 µM
O=C(O)c1ccc2c(c1)nc(-c1ccc3nc(-c4cc(O)cc(O)c4)ccc3c1)n2C1CCCCC1	inhibition	33 µM	NS5B polymerase	94.33%